Anti-infective test results gathered from many reports (values: NIAID ChemDB through PubChem).

Common to all: target-level tests; organism: HIV-1; target: Reverse transcriptase; measure: IC50

Two numbers with a dash give a range or band. Conditions beyond the fields shown may differ between rows. Blank or dashed fields: not listed here. ICn is the concentration giving n% inhibition.

structure,strain or isolate,changes,read by,value
CC(C)(C#Cc1ccc(NC(=O)CSc2nnnn2-c2cc(C(F)(F)F)ccc2Cl)c(Cl)c1F)C(=O)O,WT,,PicoGreen / fluorescence,<1 µM
CC(C)c1cnc(C2C=C(c3ccccc3)N=C(N)S2)cn1,,,RT activity / ELISA / absorbance,>100 µM
CC(C)(C)c1ccc(-n2nnnc2SCC(=O)Nc2ccc(NC(=O)C(C)(C)c3ccccc3)cc2Cl)c(Cl)c1,,RT-K103 Y181C,PicoGreen / fluorescence,<1 µM
CCN1c2ncc(CCOc3ccc(NC(=O)CCC(=O)O)c4ccccc34)cc2C(=O)N(C)c2cccnc21,,RT-K103N Y181C,nucleotide incorporation / radiometric,0.1–1 µM
CC(C)(C)c1ccc(-n2nnnc2SCC(=O)Nc2ccc(NC(=O)c3ccccc3)cc2Cl)c(Cl)c1,,RT-K103 Y181C,PicoGreen / fluorescence,<1 µM
Cc1cn([C@H]2C[C@H](N=[N+]=[N-])[C@@H](COP(=O)(O)OP(=O)(O)C(F)(F)P(=O)(O)N=[N+]=[N-])O2)c(=O)[nH]c1=O,,,fluorescence,>0.5 µM
CCCc1ccc(-n2c(Br)nnc2SCC(=O)Nc2ccc(S(N)(=O)=O)cc2C)c2ccccc12,,RT-Y181C,nucleotide incorporation / radiometric,<0.05 µM
CN(C)c1ccc(NC(=O)c2ccc(NC(=O)CSc3nnnn3-c3ccc(C(C)(C)C)cc3Cl)c(Cl)c2)cc1,,RT-K103 Y181C,PicoGreen / fluorescence,<1 µM
Nc1nc2c(ncn2[C@H]2CC[C@@H](COP(=O)(O)OP(=O)(O)OP(=O)(O)O)O2)c(=O)[nH]1,,RT-Y188L,nucleotide incorporation,0.03 µM
CCc1ccc(-n2c(Br)nnc2SCC(=O)Nc2ccc(S(N)(=O)=O)cc2Cl)c2c1CCCC2,,RT-Y181C,nucleotide incorporation / radiometric,<0.05 µM
O=C(CSc1nnnn1-c1cc(C(F)(F)F)ccc1Cl)Nc1ccc(-c2ccc(OCCN3CCCCC3)cc2)cc1Cl,,RT-K103 Y181C,PicoGreen / fluorescence,<1 µM
CCc1ccc(-n2c(Br)nnc2SCC(=O)Nc2ccc(C(=O)NCCC#N)cc2Cl)c2ccccc12,,,nucleotide incorporation / radiometric,<0.05 µM
CC(C)(C#Cc1ccc(NC(=O)CSc2nnnn2-c2ccc(C3CC3)cc2Cl)c(Cl)c1)NC(=O)CN1CCCC1,WT,,PicoGreen / fluorescence,<1 µM
CC(C)c1cnc(C2C=C(c3ccc(Cl)cc3)N=C(N)S2)cn1,,,RT activity / ELISA / absorbance,34.42 µM
CCc1ccc(-n2c(Br)nnc2SCC(=O)Nc2ccc(C(=O)NCC3CCCCC3)cc2Cl)c2ccccc12,,RT-Y181C,nucleotide incorporation / radiometric,<0.05 µM
CC(C)(C)c1ccc(-n2nnnc2SCC(=O)Nc2ccc(C(=O)NCCc3ccc(O)c(O)c3)cc2Cl)c(Cl)c1,WT,,PicoGreen / fluorescence,<1 µM
CCc1ccc(-n2c(Br)nnc2SCC(=O)Nc2ccc(C(=O)NCC3CCNCC3)cc2Cl)c2ccccc12,,RT-Y188L,nucleotide incorporation / radiometric,>0.1 µM
O=C1Cc2ccc(-c3ccco3)cc2C(=O)N1O,,,RT activity / nucleotide incorporation / absorbance,2.6 µM
CCN1c2ncc(CCOc3ccc(NC(=O)CC(C)(C)C(=O)O)c4ccccc34)cc2C(=O)N(C)c2cccnc21,,RT-K103N Y181C,nucleotide incorporation / radiometric,0.1–1 µM
CCc1ccc(-n2c(CF)nnc2SCC(=O)Nc2ccc(C(=O)O)cc2Cl)c2ccccc12,,RT-Y188L,nucleotide incorporation / radiometric,>0.1 µM
CCN1c2ncc(CCOc3ccc(NS(=O)(=O)C(F)(F)F)c4ccccc34)cc2C(=O)N(C)c2ccc(F)nc21,,RT-V106A,nucleotide incorporation / radiometric,>1 µM
CC(C)(C#Cc1ccc(NC(=O)CSc2nnnn2-c2ccc(C(C)(C)C)cc2Cl)c(Cl)c1)OCC(=O)O,,RT-K103 Y181C,PicoGreen / fluorescence,<1 µM
CCCCCCCCCCCCCCCc1cccc(O)c1,,,RT activity / nucleotide incorporation,>100 µM
CC(C)(C#Cc1ccc(NC(=O)CSc2nnnn2-c2cc(Cl)ccc2Cl)c(Cl)c1)NC(=O)c1cc[n+]([O-])cc1,WT,,PicoGreen / fluorescence,<1 µM
CCc1ccc(-n2c(SCC(=O)Nc3ccc(S(N)(=O)=O)cc3Cl)nnc2C(F)F)c2c1CCCC2,,,nucleotide incorporation / radiometric,<0.05 µM
CCCCCCCCCCCCCCOC(=O)Nc1c(O)c2ccc(O[C@@H]3OC(C)(C)[C@H](CO)[C@@H](OC(N)=O)[C@H]3O)c(C)c2oc1=O,,,radiometric,30 µM
N#Cc1ccc(Nc2nc(N)n(S(=O)(=O)c3ccc4ccccc4c3)n2)cc1Cl,A17,Y181C/K103N,luciferase / RT activity,570 µM
CCc1ccc(-n2c(C)nnc2SCC(=O)Nc2ccc(S(N)(=O)=O)cc2C)c2ccccc12,,,nucleotide incorporation / radiometric,<0.05 µM
CCCCCCCCCCCCCc1cc(O)cc(O)c1,,,RT activity / RNase H,>200 µM
COc1c(/C=C/C(=O)c2ccc(Cl)cc2)ccc2ccccc12,,,RT activity / nucleotide incorporation,5 µM
COc1ccc2c(C3CC3)ccc(-n3c(Br)nnc3SCC(=O)Nc3ccc(S(N)(=O)=O)cc3Cl)c2c1,,RT-Y188L,nucleotide incorporation / radiometric,0.05–0.1 µM
CC(C)c1cnc(C2C=C(c3cccc(Cl)c3)N=C(N)S2)cn1,,,RT activity / ELISA / absorbance,39.15 µM
O=C(O)c1cc(O)c2c(c1)[C@@H]([C@H]1c3cc(C(=O)O)cc(O)c3C(=O)c3c(O[C@@H]4O[C@H](CO)[C@@H](O)[C@H](O)[C@H]4O)cccc31)c1cccc(O[C@@H]3O[C@H](CO)[C@@H](O)[C@H](O)[C@H]3O)c1C2=O,,,RNase H / radiometric,2.1 µM
CC(C)(C#Cc1ccc(NC(=O)CSc2nnnn2-c2ccc(C3CC3)cc2Cl)c(Cl)c1)OCCN,,RT-K103 Y181C,PicoGreen / fluorescence,<1 µM
C=CC(C)(C)c1[nH]c2ccccc2c1C1=C(O)C(=O)C(c2cn3c4c(cccc24)CCC3(C)C)=C(O)C1=O,,,binding,4.5 µM
CC(C)(C#Cc1ccc(NC(=O)CSc2nnnn2-c2cc(C3CC3)cc(C(F)(F)F)c2Cl)c(Cl)c1F)NC(=O)c1ccc[n+]([O-])c1,,RT-K103 Y181C,PicoGreen / fluorescence,<1 µM
N#Cc1cc(Cl)cc(Oc2cc(Cl)ccc2OCC(=O)c2ccc(OCC(=O)O)cc2)c1,,,RT activity / ELISA / absorbance,3.4 µM
COc1ccc2cccc(-n3c(Br)nnc3SCC(=O)Nc3ccc(C(=O)O)cc3Cl)c2c1,,RT-Y188L,nucleotide incorporation / radiometric,>0.1 µM
CCN1c2ncc(CCOc3ccc(S(=O)(=O)NC(C)=O)c4ccccc34)cc2C(=O)N(C)c2cccnc21,,RT-K103N Y181C,nucleotide incorporation / radiometric,0.1–1 µM
CNCCOC(=O)COC(C)(C)C#Cc1ccc(NC(=O)CSc2nnnn2-c2ccc(C(C)(C)C)cc2Cl)c(Cl)c1,,RT-K103 Y181C,PicoGreen / fluorescence,<1 µM
Cc1ccc(-n2c(SCC(=O)Nc3ccc(C(=O)O)cc3Cl)nnc2C(F)F)c2c1CCCC2,,RT-Y188L,nucleotide incorporation / radiometric,>0.1 µM
COC(=O)Cc1cccc(-c2ccc(NC(=O)CSc3nnnn3-c3ccc(C)cc3Cl)c(Cl)c2)c1,WT,,PicoGreen / fluorescence,<1 µM
CCc1ccc(-n2c(SCC(=O)Nc3ccc(C(=O)O)cc3Cl)nnc2C(F)F)c2ccccc12,,RT-Y181C,nucleotide incorporation / radiometric,<0.05 µM
COC(=O)Cc1ccc(-c2ccc(NC(=O)CSc3nnnn3-c3ccc(C)cc3Cl)c(Cl)c2)cc1,,RT-K103 Y181C,PicoGreen / fluorescence,<1 µM
Cc1ccc2ccccc2c1-n1c(Br)nnc1SC(C)C(=O)Nc1ccc(S(N)(=O)=O)cc1Cl,,RT-Y188L,nucleotide incorporation / radiometric,>0.1 µM
CC(C)(C#Cc1ccc(NC(=O)CSc2nnnn2-c2cc(C(F)(F)F)cc(C3CC3)c2Cl)c(Cl)c1F)NC(=O)CN1CCNCC1,WT,,PicoGreen / fluorescence,<1 µM
CCN1c2ncc(CCOc3ccc(S(=O)(=O)NCC(=O)O)c4ccccc34)cc2C(=O)N(C)c2cccnc21,,RT-V106A,nucleotide incorporation / radiometric,0.1–1 µM
Cc1ccc(-n2nnnc2SCC(=O)Nc2ccc(-c3ccc(O)cc3)cc2Cl)c(Cl)c1,,RT-K103 Y181C,PicoGreen / fluorescence,<1 µM
CCOC(=O)C(=O)CC(=O)/C=C/c1cccn1Cc1ccccc1Cl,,,RNase H / radiometric,7.4 µM
NS(=O)(=O)c1ccc(NC(=O)CSc2nnc(Br)n2-c2ccc(C3CC3)cc2Cl)c(Cl)c1,,RT-Y188L,nucleotide incorporation / radiometric,>0.1 µM
CC(C)c1cnc(C2C=C(c3cccc([N+](=O)[O-])c3)N=C(N)S2)cn1,,,RT activity / ELISA / absorbance,6.34 µM
CCc1ccc(-n2c(Br)nnc2SCC(=O)Nc2ccc(S(=O)(=O)O)cc2Br)c2ccccc12,,RT-Y181C,nucleotide incorporation / radiometric,<0.05 µM
CCCCCC/C=C/CCCCCCCCCc1cccc(O)c1,,,RT activity / nucleotide incorporation,>100 µM
CC(C)c1cnc(C2C=C(c3ccc(F)cc3)N=C(N)S2)cn1,,,RT activity / ELISA / absorbance,15.32 µM
CC(C)c1ccc(-n2nnnc2SCC(=O)Nc2ccc(-c3ccc(C(C)(C)C(=O)O)cc3)cc2Cl)c(Cl)c1,WT,,PicoGreen / fluorescence,<1 µM
O=C(CSc1nnc(Br)n1-c1ccc(C2CCC2)c2ccccc12)Nc1ccc(C(=O)O)cc1Cl,,RT-Y181C,nucleotide incorporation / radiometric,<0.05 µM
CCNC(=O)N1CCc2c(OCCc3cnc4c(c3)C(=O)N(C)c3cccnc3N4CC)ccc(C(=O)O)c2C1,,RT-Y188L,nucleotide incorporation / radiometric,>1 µM
N#Cc1cc(Cl)cc(C(=O)c2cc(Cl)ccc2OCc2[nH]nc3ncccc23)c1,,,scintillation proximity / radiometric,0.0244 µM
Cc1cc(C2CC2)ccc1-n1c(Br)nnc1SCC(=O)Nc1ccc(S(N)(=O)=O)cc1Cl,,,nucleotide incorporation / radiometric,<0.05 µM
COc1c(/C=C/C(=O)c2ccc(F)cc2)ccc2ccccc12,,,RT activity / nucleotide incorporation,5 µM
O=C(CSc1nnnn1-c1ccc(C2CC2)cc1Cl)Nc1ccc(-c2ccc(OCCN3CCCCC3)cc2)c(F)c1Cl,WT,,PicoGreen / fluorescence,<1 µM
COc1c(/C=C/C(=O)c2cccc([N+](=O)[O-])c2)ccc2ccccc12,,,RT activity / nucleotide incorporation,5 µM
CC(C)(C#Cc1ccc(NC(=O)CSc2nnnn2-c2cc(C(C)(C)C)ccc2Cl)c(Cl)c1)C(=O)O,,RT-K103 Y181C,PicoGreen / fluorescence,<1 µM
Cc1cc(C#N)ccc1Nc1nc(N)n(S(=O)(=O)c2cccc3cc(C#N)ccc23)n1,IIIB,,luciferase / RT activity,14 µM
CC(C)(C#Cc1ccc(NC(=O)CSc2nnnn2-c2ccc(C3CC3)cc2Cl)c(Cl)c1)NS(C)(=O)=O,,RT-K103 Y181C,PicoGreen / fluorescence,<1 µM
CCN1c2ncc(CCOc3ccc(C(=O)O)c4ccccc34)cc2C(=O)N(C)c2ccc(F)nc21,WT,,nucleotide incorporation / radiometric,<0.1 µM

A second listing of 9 rows from above:

structure | strain or isolate | changes | read by | value
COc1c(/C=C/C(=O)c2ccc(F)cc2)ccc2ccccc12 |  |  | RT activity / nucleotide incorporation | 5 µM
CCN1c2ncc(CCOc3ccc(NS(=O)(=O)C(F)(F)F)c4ccccc34)cc2C(=O)N(C)c2ccc(F)nc21 |  | RT-V106A | nucleotide incorporation / radiometric | >1 µM
CCN1c2ncc(CCOc3ccc(NC(=O)CCC(=O)O)c4ccccc34)cc2C(=O)N(C)c2cccnc21 |  | RT-K103N Y181C | nucleotide incorporation / radiometric | 0.1–1 µM
CCN1c2ncc(CCOc3ccc(C(=O)O)c4ccccc34)cc2C(=O)N(C)c2ccc(F)nc21 | WT |  | nucleotide incorporation / radiometric | <0.1 µM
CC(C)(C#Cc1ccc(NC(=O)CSc2nnnn2-c2ccc(C3CC3)cc2Cl)c(Cl)c1)NS(C)(=O)=O |  | RT-K103 Y181C | PicoGreen / fluorescence | <1 µM
COc1ccc2c(C3CC3)ccc(-n3c(Br)nnc3SCC(=O)Nc3ccc(S(N)(=O)=O)cc3Cl)c2c1 |  | RT-Y188L | nucleotide incorporation / radiometric | 0.05–0.1 µM
O=C(CSc1nnnn1-c1cc(C(F)(F)F)ccc1Cl)Nc1ccc(-c2ccc(OCCN3CCCCC3)cc2)cc1Cl |  | RT-K103 Y181C | PicoGreen / fluorescence | <1 µM
CC(C)(C#Cc1ccc(NC(=O)CSc2nnnn2-c2cc(C(C)(C)C)ccc2Cl)c(Cl)c1)C(=O)O |  | RT-K103 Y181C | PicoGreen / fluorescence | <1 µM
CCc1ccc(-n2c(C)nnc2SCC(=O)Nc2ccc(S(N)(=O)=O)cc2C)c2ccccc12 |  |  | nucleotide incorporation / radiometric | <0.05 µM